Experimental data taken from paper PMC6755732, “Structural, Biochemical, and In Vivo Characterization of MtrR-Mediated Resistance to Innate Antimicrobials by the Human Pathogen Neisseria gonorrhoeae” (Journal of Bacteriology, 2019).

Columns and labels:
[1] = molecular target: MtrR (Neisseria gonorrhoeae) (UniProt P39897); assay: fluorescence polarization; conditions: FP: 20 mM Tris-HCl pH 8.0, 100 mM NaCl, 2.5% glycerol, 1 nM DNA, temperature not stated, recombinant protein, residues 1-210, protein details: His6 removed by thrombin
[2] = molecular target: MtrR WT (codon-optimized, pMCSG7) (Neisseria gonorrhoeae) (UniProt P39897); assay: fluorescence polarization; conditions: no bile salt, value assigned to WT since mutants are within 5-fold; FP: 20 mM Tris-HCl pH 8.0, 100 mM NaCl, 2.5% glycerol, 1 nM DNA, temperature not stated; recombinant protein; residues 1-210; protein details: N-terminal His6 removed by TEV
[3] = molecular target: MtrR (Neisseria gonorrhoeae) (UniProt P39897); assay: EMSA; conditions: EMSA: 20 mM Tris pH 8.0, 200 mM NaCl, 10% glycerol, 1 mM TCEP, 1 ug poly(dI-dC), room temperature, 2% agarose TAE, recombinant …, residues 1-210, protein details: His6 removed by thrombin
[4] = molecular target: MtrR(R176A) (Neisseria gonorrhoeae) (UniProt P39897); assay: EMSA; conditions: taurodeoxycholate 5-10 mM; EMSA: 20 mM Tris pH 8.0, 200 mM NaCl, 10% glycerol, 1 mM TCEP, 1 ug poly(dI-dC), room temperature, 2% agarose TAE; recombinant protein; residues 1-210; protein details: N-terminal His6 removed by TEV
[5] = molecular target: MtrR(R176E) (Neisseria gonorrhoeae) (UniProt P39897); assay: EMSA; conditions: taurodeoxycholate 5-10 mM; EMSA: 20 mM Tris pH 8.0, 200 mM NaCl, 10% glycerol, 1 mM TCEP, 1 ug poly(dI-dC), room temperature, 2% agarose TAE; recombinant protein; residues 1-210; protein details: N-terminal His6 removed by TEV
[6] = molecular target: MtrR(W136L) (Neisseria gonorrhoeae) (UniProt P39897); assay: EMSA; conditions: EMSA: 20 mM Tris pH 8.0, 200 mM NaCl, 10% glycerol, 1 mM TCEP, 1 ug poly(dI-dC), room temperature, 2% agarose TAE, recombinant protein, residues 1-210, protein details: N-terminal His6 removed by TEV

## TTTTTATCCGTGCAATCGTGTATGTAT (double strand) [mtrC (mtrCDE) operator 27-mer, fluorescein]
[1]; 1 mM chenodeoxycholate
  Kd: 150 nM
[1]; 1 mM taurodeoxycholate
  Kd: 500 nM
[1]; 5 mM chenodeoxycholate
  binding result: no binding
[1]; 5 mM glycocholate
  Kd: 90 nM
[1]; 5 mM taurocholate
  Kd: 130 nM
[1]; 5 mM taurodeoxycholate
  binding result: no binding
[1]; 10 mM CAPS pH 8.0
  Kd: 1200 nM
[1]; 10 mM glycocholate
  Kd: 110 nM
[1]; 10 mM taurocholate
  Kd: 310 nM
[2]
  Kd: 38 nM

## TTTTTATCCGTGCAATCGTGTATGTAT (double strand) [mtrC (mtrCDE) operator 27-mer, unlabeled]
[3]; chenodeoxycholate 2-3 mM
  binding result: binds more weakly
[3]; taurodeoxycholate 2-3 mM
  binding result: binds more weakly
[4]
  binding result: binds more weakly
[5]
  binding result: binds more weakly
[6]; chenodeoxycholate 5-10 mM
  binding result: binds more weakly
[6]; taurodeoxycholate 5-10 mM
  binding result: binds more weakly

For some of these results: Negatives hold for the conditions tested. Construct, isoform or probe ends are uncertain for at least one entry. For some of these results: The comparison behind a weaker result is the experiment's own reference, which may not be listed here.
